For the data set, the target named is his-tagged recombinant CFP-SNAP-25-YFP chimera protein (purified from E. coli), P60881.

B1: botulinum neurotoxin E (BoNT/E) (protein)
chain 1: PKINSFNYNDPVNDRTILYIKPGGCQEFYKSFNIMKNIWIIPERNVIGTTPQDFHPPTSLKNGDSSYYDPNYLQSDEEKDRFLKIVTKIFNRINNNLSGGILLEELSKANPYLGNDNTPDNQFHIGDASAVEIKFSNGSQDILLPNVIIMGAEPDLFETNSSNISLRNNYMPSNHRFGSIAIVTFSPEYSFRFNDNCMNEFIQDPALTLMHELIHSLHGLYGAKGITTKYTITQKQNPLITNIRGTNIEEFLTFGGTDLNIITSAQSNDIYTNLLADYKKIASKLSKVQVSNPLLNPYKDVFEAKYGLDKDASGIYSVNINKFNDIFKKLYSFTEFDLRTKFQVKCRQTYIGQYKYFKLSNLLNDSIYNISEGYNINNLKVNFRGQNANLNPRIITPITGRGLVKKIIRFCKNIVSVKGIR
chain 2: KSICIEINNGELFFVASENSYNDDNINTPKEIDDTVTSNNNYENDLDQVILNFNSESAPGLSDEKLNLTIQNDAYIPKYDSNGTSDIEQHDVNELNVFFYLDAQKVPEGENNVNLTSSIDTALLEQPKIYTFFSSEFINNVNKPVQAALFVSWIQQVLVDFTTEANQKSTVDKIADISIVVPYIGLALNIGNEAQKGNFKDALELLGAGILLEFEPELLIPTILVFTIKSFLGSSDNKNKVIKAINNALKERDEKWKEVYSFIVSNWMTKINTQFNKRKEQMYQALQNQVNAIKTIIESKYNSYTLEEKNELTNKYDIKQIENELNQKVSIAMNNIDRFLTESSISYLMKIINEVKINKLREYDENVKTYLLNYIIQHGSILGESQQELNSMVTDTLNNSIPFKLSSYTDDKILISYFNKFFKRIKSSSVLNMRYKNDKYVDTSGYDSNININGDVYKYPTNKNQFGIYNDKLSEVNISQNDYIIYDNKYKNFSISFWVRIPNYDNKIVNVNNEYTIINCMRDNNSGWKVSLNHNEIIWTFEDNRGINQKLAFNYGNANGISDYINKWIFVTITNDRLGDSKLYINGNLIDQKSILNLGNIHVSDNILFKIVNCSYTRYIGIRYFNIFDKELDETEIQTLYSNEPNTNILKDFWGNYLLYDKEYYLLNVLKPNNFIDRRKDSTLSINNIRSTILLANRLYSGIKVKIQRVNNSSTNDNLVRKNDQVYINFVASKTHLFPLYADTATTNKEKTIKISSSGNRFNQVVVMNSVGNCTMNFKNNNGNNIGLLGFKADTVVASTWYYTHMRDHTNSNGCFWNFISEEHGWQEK
For the protein B1, the “FRET ratio against toxin concentration over time, plate reader” value is on record as “higher toxin concentration resulted in faster decrease of the FRET ratio”.
